Source: publication PMC7038234, “Screening of Natural Extracts for Inhibitors against Japanese Encephalitis Virus Infection” (Antimicrobial Agents and Chemotherapy, 2020)

The compounds below were run on JEV strain AT31 (assay: microbe, parasite or virus in culture). Conditions: Japanese encephalitis virus, 24 h, Primary screening of 1034 compounds in the natural extracts library.
For COc1cc2c(cc1OC)[C@@]13CCN4CC5=CCO[C@H]6CC(=O)N2[C@H]1[C@H]6[C@H]5C[C@H]43 [Brucine], the inhibition at 50 µM was 2.81%.
C[C@@H]1CCC=C2C(=O)C[C@H]3OOC(C)(C)[C@H]3[C@]21C [Nardosinone] gave an inhibition at 50 µM of 16.5%.
O=C1c2ccccc2C(=O)c2c(O)c(O)cc(O)c21 [Purpurin] was tested, and the inhibition at 50 µM was 11.9%.
C[C@@H]1CC[C@]2(C(=O)O[C@@H]3O[C@H](CO)[C@@H](O)[C@H](O)[C@H]3O)CC[C@]3(C)C(=CC[C@@H]4[C@@]5(C)CC[C@H](O)[C@@](C)(CO)[C@@H]5CC[C@]43C)[C@@H]2[C@]1(C)O [Pedunculoside] showed an inhibition at 50 µM of -6.18%.
For C[C@@H]1O[C@@H](Oc2c(-c3ccc(O)c(O)c3)oc3cc(O)cc(O)c3c2=O)[C@H](O)[C@H](O)[C@H]1O [Quercitrin], the inhibition at 50 µM was 1.23%.
Compound COC(=O)C[C@](O)(CCCC(C)(C)O)C(=O)O[C@@H]1C(OC)=C[C@]23CCCN2CCc2cc4c(cc2[C@H]13)OCO4 [Homoharringtonine] has an inhibition at 50 µM of 43.5%.
COc1c(O)cc2c(c1O)[C@@H]1O[C@H](CO)[C@@H](O)[C@H](O)[C@H]1OC2=O [Bergenin] was tested, and the inhibition at 50 µM was 26.5%.
O=c1c(-c2ccc(O)cc2)coc2cc(O[C@@H]3O[C@H](CO)[C@@H](O)[C@H](O)[C@H]3O)cc(O)c12 [Genistin] gave an inhibition at 50 µM of 5.29%.
CCCOC(=O)c1cc(O)c(O)c(O)c1 [Propyl gallate] was tested, and the inhibition at 50 µM was -11.4%.
C[n+]1cccc(C(=O)[O-])c1 [Trigonelline] gave an inhibition at 50 µM of 3.1%.
For COC(=O)[C@@]12OC[C@]34[C@H]([C@@H](O)[C@@H]1O)[C@@]1(C)CC(=O)C(O)=C(C)[C@@H]1C[C@H]3OC(=O)[C@H](OC(=O)CC(C)C)[C@@H]24 [Bruceine A], the inhibition at 50 µM was 34%.
Compound COc1cc(C=CC(=O)O)cc(OC)c1OC [3,4,5-Trimethoxycinnamic acid] has an inhibition at 50 µM of -0.768%.
O=c1c(O)c(-c2ccc(O)c(O)c2)oc2cc(O)cc(O)c12 [Quercetin Dihydrate] showed an inhibition at 50 µM of 36%.
In the case of OC[C@H]1O[C@@H](OCCc2ccc(O)cc2)[C@H](O)[C@@H](O)[C@@H]1O [Salidroside], the inhibition at 50 µM is reported as 11.5%.
For C[C@@H]1[C@H]2c3cc4c(cc3O[C@@]35OCOC3=CC(=O)[C@H](C[C@H]1C)[C@@H]25)OCO4 [Sauchinone], the inhibition at 50 µM was 41.8%.
In the case of COc1c2occc2cc2ccc(=O)oc12 [8-Methoxypsoralen], the inhibition at 50 µM is reported as 3.57%.
Compound O=C1C[C@@H](c2ccc(O[C@@H]3O[C@H](CO)[C@@H](O)[C@H](O)[C@H]3O)cc2)Oc2cc(O)ccc21 [Liquiritin] has an inhibition at 50 µM of -6.55%.
CC[C@H]1CN2CC[C@]3(C(=O)Nc4ccccc43)[C@@H]2C[C@@H]1/C(=C\OC)C(=O)OC [rhynchophylline] showed an inhibition at 50 µM of 16.5%.
For O=c1c(O)c(-c2ccc(O)c(O)c2)oc2cc(O)cc(O)c12 [Quercetin], the inhibition at 50 µM was 13.7%.
COc1ccccc1O [Guaiacol] gave an inhibition at 50 µM of -3.17%.
Work on COc1ccc2[nH]cc(CCNC(C)=O)c2c1 [Melatonin] yielded an inhibition at 50 µM of 18.2%.
Compound C[C@@H]1CC[C@@]2(OC1)O[C@H]1C[C@H]3[C@@H]4CC=C5C[C@@H](O)CC[C@]5(C)[C@H]4CC[C@]3(C)[C@H]1[C@@H]2C [Diosgenin] has an inhibition at 50 µM of 37.5%.
Compound OC[C@H]1O[C@H](O[C@H]2[C@H](O)[C@@H](O)C(O)O[C@@H]2CO)[C@H](O)[C@@H](O)[C@@H]1O (mixture of isomers) [Maltose] has an inhibition at 50 µM of -5.29%.
For CC(C)[C@@H](C)/C=C/[C@@H](C)[C@H]1CC[C@H]2C3=CC=C4C[C@@H](O)CC[C@]4(C)[C@H]3CC[C@]12C [Ergosterol], the inhibition at 50 µM was 12%.
For COc1ccc2c3c1O[C@H]1C[C@@H](O)C=C[C@@]31CCN(C)C2 [Galanthamine], the inhibition at 50 µM was -6.31%.
For O=C(O)/C=C\C(=O)O [Maleic acid], the inhibition at 50 µM was -8.18%.
In the case of CC1=CC(=O)CC(C)(C)[C@@]1(O)/C=C/C(C)=C\C(=O)O [Abscisic acid], the inhibition at 50 µM is reported as -3.11%.
Compound CC1(C)OC(=O)C=C[C@]2(C)[C@H]3CC[C@@]4(C)[C@H](c5ccoc5)OC(=O)[C@H]5O[C@]54[C@]3(C)C(=O)C[C@@H]12 [Obacunone] has an inhibition at 50 µM of 14.2%.
Compound O=C(O)c1cc(O)c(O)c(O)c1 [Gallic acid] has an inhibition at 50 µM of 98.6%.
With CC(C)=CCC[C@](C)(O[C@@H]1O[C@H](CO)[C@@H](O)[C@H](O)[C@H]1O)[C@H]1CC[C@]2(C)[C@@H]1[C@H](O)C[C@@H]1[C@@]3(C)CC[C@H](O)C(C)(C)[C@@H]3[C@@H](O[C@@H]3O[C@H](CO)[C@@H](O)[C@H](O)[C@H]3O)C[C@]12C [Ginsenoside Rg1] the inhibition at 50 µM was 7.93%.
Compound COc1ccc(/C=C/C(=O)O)cc1O [Isoferulic acid] has an inhibition at 50 µM of -13.2%.
C[C@@H]1O[C@@H](O[C@H]2[C@H](OC(=O)[C@]34CCC(C)(C)C[C@H]3C3=CC[C@@H]5[C@@]6(C)C[C@H](O)[C@H](O[C@@H]7O[C@H](CO)[C@@H](O)[C@H](O)[C@H]7O)C(CO)(CO)[C@@H]6CC[C@@]5(C)[C@]3(C)C[C@H]4O)OC[C@H](O)[C@@H]2O)[C@H](O)[C@H](O)[C@H]1O[C@@H]1OC[C@@H](O)[C@H](O[C@@H]2OC[C@](O)(CO)[C@H]2O)[C@H]1O [Platycodin D] showed an inhibition at 50 µM of 91.8%.
In the case of COc1ccc([C@@H]2CC(=O)c3c(O)cc(O[C@@H]4O[C@H](CO)[C@@H](O)[C@H](O)[C@H]4O[C@@H]4O[C@@H](C)[C@H](O)[C@@H](O)[C@H]4O)cc3O2)cc1 [Poncirin], the inhibition at 50 µM is reported as -6.15%.
Cc1cc(=O)oc2cc(O)ccc12 [7-Hydroxy-4-methylcoumarin] was tested, and the inhibition at 50 µM was 2.48%.
O=c1oc2c(O)c(O)cc3c(=O)oc4c(O)c(O)cc1c4c23 [Ellagic acid] gave an inhibition at 50 µM of 5.81%.
Compound C=C(C)[C@@H]1CC[C@]2(C)CC[C@]3(C)[C@H](CC[C@@H]4[C@@]5(C)CC[C@H](O)C(C)(C)[C@@H]5CC[C@]43C)[C@@H]12 [Lupeol] has an inhibition at 50 µM of 31.3%.
C=C1C(=O)[C@@]23[C@H](O)C[C@@H]4C(C)(C)C(=O)CC[C@@]4(C)[C@@H]2CC[C@@H]1[C@H]3OC(C)=O [glaucocalyxin B] showed an inhibition at 50 µM of 70.4%.
With C=C1C[C@@]23CC[C@H]4[C@@](C)(CCC[C@@]4(C)C(=O)O[C@@H]4O[C@H](CO)[C@@H](O)[C@H](O)[C@H]4O)[C@@H]2CC[C@]1(O[C@@H]1O[C@H](CO)[C@@H](O)[C@H](O)[C@H]1O)C3 [Rubusoside] the inhibition at 50 µM was -9.52%.
C=C[C@](C)(O)CC[C@@H]1[C@@]2(C)CCCC(C)(C)[C@@H]2CC[C@@]1(C)O [Sclareol] showed an inhibition at 50 µM of -31.1%.
COC(=O)c1cc(O)c(O)c(O)c1 [Methyl gallate] showed an inhibition at 50 µM of 14.4%.
With O=C(/C=C/C=C/c1ccc2c(c1)OCO2)N1CCCCC1 [Piperine] the inhibition at 50 µM was 13.8%.
COc1c(O)c(C)cc2c1C(=O)c1c(O)cccc1C2=O [Obtusifolin] showed an inhibition at 50 µM of 52.5%.
For CC[C@]1(O)C[C@H]2CN(CCc3c([nH]c4ccccc34)[C@@](C(=O)OC)(c3cc4c(cc3OC)N(C=O)[C@H]3[C@@](O)(C(=O)OC)[C@H](OC(C)=O)[C@]5(CC)C=CCN6CC[C@]43[C@@H]65)C2)C1 [Vincristine Sulfate], the inhibition at 50 µM was 46.9%.
CC(C)=CCC[C@](C)(O)[C@H]1CC[C@]2(C)[C@@H]1[C@H](O)C[C@@H]1[C@@]3(C)CC[C@H](O)C(C)(C)[C@@H]3[C@@H](O[C@@H]3O[C@H](CO)[C@@H](O)[C@H](O)[C@H]3O)C[C@]12C [Ginsenoside Rh1] was tested, and the inhibition at 50 µM was -7.53%.
O=C(O)C1=CO[C@@H](O[C@@H]2O[C@H](CO)[C@@H](O)[C@H](O)[C@H]2O)[C@@H]2C(CO)=CC[C@H]12 [Geniposidic acid] showed an inhibition at 50 µM of -0.401%.
Work on COc1cc2c(cc1O)CC[n+]1cc3c(OC)c(OC)ccc3cc1-2 [Jatrorrhizine] yielded an inhibition at 50 µM of 83.3%.
With COc1ccc2cc1Oc1ccc(cc1)C[C@H]1c3cc(c(OC)cc3CCN1C)Oc1c(OC)c(OC)cc3c1[C@H](C2)N(C)CC3 [Tetrandrine] the inhibition at 50 µM was 2.52%.
Compound O=C1CCC[C@@H]2[C@H]3CCCN4CCC[C@@H](CN12)[C@@H]34 [matrine] has an inhibition at 50 µM of 11.1%.
With CCC12C=CCN3CC[C@@]4(c5ccc(OC)cc5N(C)[C@H]4[C@@](O)(C(=O)OC)[C@@H]1OC(C)=O)[C@@H]32 (stereo partly drawn) [Vindoline] the inhibition at 50 µM was 13.4%.
CO[C@]1(CC[C@@H](C)CO[C@@H]2O[C@H](CO)[C@@H](O)[C@H](O)[C@H]2O)O[C@H]2C[C@H]3[C@@H]4CC=C5C[C@@H](O[C@@H]6O[C@H](CO)[C@@H](O[C@@H]7O[C@@H](C)[C@H](O)[C@@H](O)[C@H]7O)[C@H](O)[C@H]6O[C@@H]6O[C@@H](C)[C@H](O)[C@@H](O)[C@H]6O)CC[C@]5(C)[C@H]4CC[C@]3(C)[C@H]2[C@@H]1C [Methyl protodioscin] showed an inhibition at 50 µM of 22.2%.
In the case of CC1(C)[C@@H](O)CC[C@]2(C)[C@H]3C(=O)C=C4[C@@H]5C[C@@](C)(C(=O)O)CC[C@]5(C)CC[C@@]4(C)[C@]3(C)CC[C@@H]12 [Glycyrrhetinic acid], the inhibition at 50 µM is reported as 25.6%.
OC[C@H]1O[C@@H](Oc2cc(O)cc(/C=C/c3ccc(O)cc3)c2)[C@H](O)[C@@H](O)[C@@H]1O [Polydatin] showed an inhibition at 50 µM of -0.146%.
COc1cc(/C=C/CO)cc(OC)c1O[C@@H]1O[C@H](CO)[C@@H](O)[C@H](O)[C@H]1O [Syringin] gave an inhibition at 50 µM of 1.9%.
Compound O=c1c(-c2ccc(O)cc2)coc2cc(O)cc(O)c12 [Genistein] has an inhibition at 50 µM of 27.9%.
With CC1=CC(=O)CC(C)(C)C1 [Isophorone] the inhibition at 50 µM was 42.5%.
In the case of CC(C)OC(=O)c1ccc(O)cc1 [Isopropyl 4-Hydroxybenzoate], the inhibition at 50 µM is reported as -16.3%.
Work on COC(=O)C1=CO[C@@H](O)[C@@H]2C(CO)=CC[C@H]12 [Genipin] yielded an inhibition at 50 µM of -0.628%.
Work on O=C(/C=C/c1ccc(O)cc1)OC[C@H]1O[C@@H](Oc2c(-c3ccc(O)cc3)oc3cc(O)cc(O)c3c2=O)[C@H](O)[C@@H](O)[C@@H]1O [Tiliroside] yielded an inhibition at 50 µM of -2.58%.
Compound O=C(O)C1=C[C@@H](O)[C@@H](O)[C@H](O)C1 [Shikimic Acid] has an inhibition at 50 µM of -3.63%.
For C[C@@H]1O[C@@H](OC[C@H]2O[C@@H](Oc3c(-c4ccc(O)c(O)c4)oc4cc(O)cc(O)c4c3=O)[C@H](O)[C@@H](O)[C@@H]2O)[C@H](O)[C@H](O)[C@H]1O [Rutin], the inhibition at 50 µM was 8.7%.
With C[C@H]1[C@H](OC(=O)CCC(=O)O)O[C@@H]2O[C@@]3(C)CC[C@H]4[C@H](C)CC[C@@H]1[C@@]24OO3 [Artesunate] the inhibition at 50 µM was 14.2%.
Compound CCC/C=C1\OC(=O)C2=C1CCC=C2 [Ligustilide] has an inhibition at 50 µM of 39%.
Compound COc1ccc(-c2cc(=S)ss2)cc1 [Anethole trithione] has an inhibition at 50 µM of 5.7%.

Structures can show the parent of a compound that is named as a salt.
